Assay results published in ChEMBL document CHEMBL1133488 (Bioorg Med Chem Lett, 2000).

Key:
Scytalone dehydratase [1] = biological target: Scytalone dehydratase (Magnaporthe oryzae (strain 70-15 / FGSC 8958) (Rice blast fungus)(Pyricularia oryzae), UniProt P56221, H110N); assay: The compound was evaluated for its binding affinity against mutant H110N scytalone dehydratase
Scytalone dehydratase [2] = biological target: Scytalone dehydratase (Magnaporthe oryzae (strain 70-15 / FGSC 8958) (Rice blast fungus)(Pyricularia oryzae), UniProt P56221, H85N); assay: The compound was evaluated for its binding affinity against mutant H85N scytalone dehydratase
Scytalone dehydratase [3] = biological target: Scytalone dehydratase (Magnaporthe oryzae (strain 70-15 / FGSC 8958) (Rice blast fungus)(Pyricularia oryzae), UniProt P56221, N131A); assay: The compound was evaluated for its binding affinity against mutant N131A scytalone dehydratase
Scytalone dehydratase [4] = biological target: Scytalone dehydratase (Magnaporthe oryzae (strain 70-15 / FGSC 8958) (Rice blast fungus)(Pyricularia oryzae), UniProt P56221, Y30F); assay: The compound was evaluated for its binding affinity against mutant Y30F scytalone dehydratase
Scytalone dehydratase [5] = biological target: Scytalone dehydratase (Magnaporthe oryzae (strain 70-15 / FGSC 8958) (Rice blast fungus)(Pyricularia oryzae), UniProt P56221, Y50F); assay: The compound was evaluated for its binding affinity against mutant Y50F scytalone dehydratase

CC(C)NC(=O)c1cc(F)ccc1O
Ki (Scytalone dehydratase [1]): 9.1 µM
Ki (Scytalone dehydratase [2]): 4 µM
Ki (Scytalone dehydratase [3]): 71 µM
Ki (Scytalone dehydratase [4]): 0.16 µM
Ki (Scytalone dehydratase [5]): 0.085 µM
